PubChem BioAssay AID624099 | ICCB-Longwood – 2012
The deposit covers about 21,000 reagents; shown is a part drawn at random. Over the whole deposit, 497 (2.4%) got an active call. 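Higher z means weaker E2 silencing; only reporter increases were scored, and knock-downs that hurt cell survival may mask genuine repressor factors.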 Reagent sequences are not shown.

Assay: 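Human genes that papillomavirus E2 requires to repress the HPV18 LCR promoter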 (primary screen)
Cells: human C33A cervical carcinoma cells (HPV-negative) stably expressing BPV1 E2 and an HPV18 LCR luciferase reporter
Reagent: siRNA pool against human genes, 40 nM
Timing: 72 h
Read-out: 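HPV18 LCR reporter light per well, converted to plate-wise z-scores that exclude control wells, and averaged over triplicate plates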
Reading the numbers: mean z-score and z-score: higher = stronger reporter signal, weaker E2 silencing
Rule for the call: 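Mean z ≥ 2 together with z ≥ 2 in two or more of the three replicates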

For ZNF302 [SID134324611], how do the results read?
mean z-score: -1.31; z-score, replicate A: -1.3; z-score, replicate B: -1.38; z-score, replicate C: -1.26; call: inactive

For FAM222B [SID134324487], what was measured?
mean z-score: -0.74; z-score, replicate A: -1.09; z-score, replicate B: -0.59; z-score, replicate C: -0.55; call: inactive

What did the screen give for HABP4 [SID134317084]?
mean z-score: 0.27; z-score, replicate A: 0.04; z-score, replicate B: 0.26; z-score, replicate C: 0.52; call: inactive

What is on record for NAGK [SID56479116]?
mean z-score: -0.1; z-score, replicate A: -0.15; z-score, replicate B: -0.16; z-score, replicate C: 0; call: inactive

How did the screen score MXI1 [SID134314638]?
mean z-score: 0.08; z-score, replicate A: 0; z-score, replicate B: -0.07; z-score, replicate C: 0.29; call: inactive

With LOC400785 (retired record) [SID134326969], what does the deposit list?
mean z-score: -0.03; z-score, replicate A: 0.09; z-score, replicate B: -0.41; z-score, replicate C: 0.22; call: inactive

For TAS2R1 [SID134317477], how do the results read?
mean z-score: 0.19; z-score, replicate A: 0.24; z-score, replicate B: 0.18; z-score, replicate C: 0.14; call: inactive

What did the screen give for SPATA1 [SID134318230]?
mean z-score: 0.19; z-score, replicate A: 0.48; z-score, replicate B: 0.16; z-score, replicate C: -0.07; call: inactive

How did the screen score PLA2G7 [SID134310666]?
mean z-score: 0.16; z-score, replicate A: 0.18; z-score, replicate B: 0.26; z-score, replicate C: 0.05; call: inactive

What is on record for ITGB3 [SID134310278]?
mean z-score: 1.17; z-score, replicate A: 1.1; z-score, replicate B: 1.16; z-score, replicate C: 1.24; call: inactive

With LOC401314 (retired record) [SID134327744], how do the results read?
mean z-score: 0.69; z-score, replicate A: 0.33; z-score, replicate B: 0.73; z-score, replicate C: 1.02; call: inactive

How did the screen score H2AC6 [SID134315772]?
mean z-score: 0.67; z-score, replicate A: 0.83; z-score, replicate B: 0.65; z-score, replicate C: 0.54; call: inactive

A few values from the list:
Entry of ZNF302 [SID134324611] in “mean z-score”: -1.31
Under “z-score, replicate A”, ITGB3 [SID134310278] shows 1.1
Under “z-score, replicate B”, H2AC6 [SID134315772] has 0.65

More reagents follow:
With PIGP [SID134317410], what does the deposit list?
mean z-score: -0.08; z-score, replicate A: 0.46; z-score, replicate B: -0.35; z-score, replicate C: -0.35; call: inactive

What did the screen give for CELF3 [SID134321741]?
mean z-score: -0.24; z-score, replicate A: -0.32; z-score, replicate B: 0.07; z-score, replicate C: -0.46; call: inactive

Which result is listed for H3C2 [SID134311809]?
mean z-score: -0.93; z-score, replicate A: -0.97; z-score, replicate B: -0.91; z-score, replicate C: -0.91; call: inactive

What did the screen give for RASL10B [SID134313221]?
mean z-score: -0.1; z-score, replicate A: -0.03; z-score, replicate B: 0.01; z-score, replicate C: -0.27; call: inactive

For ACP3 [SID134314027], how do the results read?
mean z-score: -0.47; z-score, replicate A: -0.43; z-score, replicate B: -0.62; z-score, replicate C: -0.35; call: inactive

Which result is listed for SCAF1 [SID134329465]?
mean z-score: 0.9; z-score, replicate A: 0.87; z-score, replicate B: 0.45; z-score, replicate C: 1.38; call: inactive

For LOC401330 (retired record) [SID134327753], what was measured?
mean z-score: -1.92; z-score, replicate A: -2.04; z-score, replicate B: -1.92; z-score, replicate C: -1.79; call: inactive

For DDX23 [SID134323622], what does the deposit list?
mean z-score: -0.04; z-score, replicate A: 0.14; z-score, replicate B: -0.23; z-score, replicate C: -0.04; call: inactive

With LOC387686 (retired record) [SID134328208], what was measured?
mean z-score: 0.47; z-score, replicate A: 0.47; z-score, replicate B: 0.44; z-score, replicate C: 0.5; call: inactive
